This series is described as follows: Fluorescence emission spectra without and with saturating ligand (wavelength shift, ΔIstd, ΔRmax). As to conditions: for λmax,apo (nm) / λmax,sat (nm): wavelength of emission maximum; for λmax,apo (nm): absence of ligand; for λmax,sat (nm): saturating ligand. The procedure: Fluorimetry. All measurements were conducted with an SLM Aminco-Bowman series 2 fluorimeter, with sample stirring at 25° C. Fluorescence emission spectra were acquired with excitation and emission slit widths of 4 and 8 nm, respectively. Photomultiplier tube potential was maintained between 400 and 800 volts. Protein concentrations were in the range of 50 to 1000 nM. Fluorophore-specific excitation was at the following approximate wavelengths: tryptophan, 290 nm; acrylodan, 390 nm; fluorescein, 485 nm; pyrene, 340 nm; NBD and NBDE, 490 nm; JPW4039, 485 nm; JPW4042, 470 nm; JPW4045, 470 nm.
Assessment of fluorescent biosensor function. Fluorescence emission spectra of bPBP-fluorophore conjugates were recorded in the absence and presence of saturating ligand concentrations. Spectral changes were characterized by four parameters: wavelength shift (the difference between the wavelengths of emission maximum in the unbound and ligand-saturated states), direction of intensity change (increase or decrease in intensity at the wavelengths of maximum emission in the two states), standard intensity change (ΔIstd), and standard ratiometric change (ΔR). ΔIstd is defined as the normalized intensity change relative to the average intensity, determined at the wavelength mid-point between the two emission maxima:
[formula] where λstd=(λmax, unbound+λmax, saturated)/2 and I1, I2 are the fluorescence intensities at λstd of each spectrum respectively (FIG. 4A). ΔR is defined in terms of two emission bands, A1 ([λ1, λ2]) and A2 ([λ3, λ4]) (FIG. 4B):
[formula] where ^∘A1, […] the areas in the absence of ligand, and ^∞A1, ^∞A2 the areas in the presence of saturating ligand. A computer program was used to enumerate ΔR for all possible pairs of wavelength bands in the two spectra, to identify the optimal sensing condition, defined as the maximum value of ΔR. Adjustable parameters of the algorithm, and their values used for ΔRmax quantities reported here, are: step size (2 nm), step width (10 nm), minimum integration area limit (fraction of total: 0.1), and maximum integration area limit (fraction of total: 1).

In the case of sulfate BP Y67C Acrylodan, the “λmax,apo (nm)” value was determined as 503 and the “λmax,sat (nm)” value is on record as 502.
Take sulfate BP Q294C Acrylodan: the “λmax,apo (nm)” value is given as 500 and the “λmax,sat (nm)” value stood at 500.
For the substance sulfate BP R134C JPW4039, the “λmax,apo (nm)” value was 522 and the “λmax,sat (nm)” value came to 518.
The like results for sulfate BP R134C Fluorescein were, in that order, 512 and 512.
The like results for sulfate BP R134C NBD were, in that order, 531 and 532.
Take sulfate BP W290C Acrylodan: the “λmax,apo (nm)” value was found to be 496 and the “λmax,sat (nm)” value is 496.
As to sulfate BP Y67C NBD, the “λmax,apo (nm)” value stood at 536 and the “λmax,sat (nm)” value amounted to 534.
For sulfate BP R134C JPW4042, the “λmax,apo (nm)” value amounted to 606 and the “λmax,sat (nm)” value was determined as 608.
For the substance sulfate BP W290C Fluorescein, the “λmax,apo (nm)” value is given as 516 and the “λmax,sat (nm)” value is reported as 515.
On to sulfate BP Q294C NBD, for which the “λmax,apo (nm)” value worked out at 530 and the “λmax,sat (nm)” value turned out to be 530.
In the case of sulfate BP W290C NBD, the “λmax,apo (nm)” value turned out to be 538 and the “λmax,sat (nm)” value came to 537.
For the substance sulfate BP Q294C Fluorescein, the “λmax,apo (nm)” value came out at 515 and the “λmax,sat (nm)” value worked out at 514.
For the substance sulfate BP Y67C Fluorescein, the “λmax,apo (nm)” value came out at 515 and the “λmax,sat (nm)” value stood at 515.
Regarding sulfate BP L65C NBD, the “λmax,apo (nm)” value was 522 and the “λmax,sat (nm)” value stood at 521.
The like results for sulfate BP Q294C JPW4042 were, in that order, 636 and 630.
In the case of sulfate BP W290C JPW4042, the “λmax,apo (nm)” value is 612 and the “λmax,sat (nm)” value is 624.
Taken in the same sequence, the figures for sulfate BP L65C JPW4042 were 629 and 635.
For the substance sulfate BP R134C Acrylodan, the “λmax,apo (nm)” value stood at 493 and the “λmax,sat (nm)” value is 478.
As for “sulfate BP R134C-acrylodan: sulfate BP R134C mutant conjugated to acrylodan”, the “ΔRmax (maximum standard ratiometric change)” value (apo vs saturating ligand, optimal pair of emission bands) came to 2.3.
For sulfate BP L65C Fluorescein, the “λmax,apo (nm)” value came to 520 and the “λmax,sat (nm)” value is recorded as 516.
With sulfate BP L65C Acrylodan, the “λmax,apo (nm)” value is 492 and the “λmax,sat (nm)” value was 482.

(Values after patent US9625458B2, “Biosensor” (priority 2002, dated 2017).)
